Laboratory results from patent US20050170334A1 (published 2005).

B1: C40G1 (antibody, V domains shown)
VH: QLQLQESGPGLVKPSETLSLTCTVSGGSISSSFYYCGWIRQPPGKGLEWIGSIYYRGSTYYNPSLKSRVTISVDTSKNQFSLKLSSVTAADTAVYYCARRVTMVRGVKGDYFDYWGQGTLVTVSS
VL: DIQMTQSPSSLSASVGDRVTITCRASQGISSWLAWYQQKPEKVPKSLIYAASSLQSGVPSRFSGSGSGTDFTLTISSLQPEDFATYYCQQYNYYPLTFGGGTKVEIKR
B2: C40G4 (antibody, V domains shown)
VH: B1 VH
VL: B1 VL

Biological target: T1, M2 expressed on A/HK/8/68 infected MDCK cells (influenza A virus A/HK/8/68)
T1 construct: whole, on cells
Test: cell-based ELISA, infected MDCK cells

Binder	EC50 [µg/mL]
B1	0.0971
B2	0.841
